From the supplement of paper PMC9931576 come the findings set out here.

Human monoclonal antibodies against the spike receptor-binding domain (heavy:light variable regions). IC50 against pseudoviruses bearing the spike of naturally observed variants; lower = stronger; >10 µg/ml means not reached at the top dose. No active / inactive call. The stated detection limit is 0.0005 µg/ml; values near or below 0.001 µg/ml lie at the floor of the assay.

To fix the notation:
B1: BD56-326 (protein)
chain 1: QVQLVESGGGVVQPGRSLRLSCAASGFTFRRYGMHWVRQAPGKGLEWVAVTSYDGTKEYYADSVKGRFTISRDNSKNTLYLQMNSLRAEDTAVYYCAKVAGEYCSGGDCLTGTFDYWGQGTLVTVSS
chain 2: DIQMTQSPSTLSASVGDRVTIACRASQNIRRWLAWYQQKPGKAPKLLIYQAFNLESGVPSRFSGSGSGTEFTLTISSLQPDDFATYYCQQYNSFNSFGQGTILEIK
B2: BD56-332 (protein)
chain 1: QVQLVQSGAEMQKPGASVKVSCRASEYTFTNYYFHWVRQAPGQGLEWMGIINPSGGSTTYAQNFQGRVTMTGDTSTSTVYMELSSLRSDDTAVYYCATGGFVPNHSYAMEVWGQGTTVTISS
chain 2: EIVMTQSPATLSVSPGERATLSCRASQSVSSKLAWYQQKPGQAPRLLIYDAATRTTGVPARFSGSGSGTEFTLSISGLQSEDFAVYYCQQYKNWPFSFGGGTKVEIK
B3: BD56-395 (protein)
chain 1: EVQLVQSGAEVKKPGESLRISCQASGYTLANYWVAWVRQVPGKGLEWIGVSYPDDSDSRISPSFQGQVVFSADKSLNTAYLQWSSVRPSDTGTYYCSRQRWGYCVGKNCESEGYYFMAMDVWGQGTTVTVSS
chain 2: QAVVTQPSSLSGSPGTTARLTCTLRSGINVAAYTLYWYQQKSGGPPQYVLKYKSPSDKQVASGVSSRFSAFKDASANAGILVISRLMSDDEADYYCVIWHGGVWVFGGGTKLTVL
B4: BD56-222 (protein)
chain 1: QLQLQESGPGLVKPSETLSVTCTVSHASISSSVYYWAWIRQPPGKGLEWIGSMYYGGSTYYNPSLKSRVTISADSSKIQFTLELTSVTAADTAVYYCARHDYTPFGDFFDHWGQGTLVTVSS
chain 2: EILMTQSPATLSVSPGESATLSCRASQSVRSKVAWYQQKPGQAPRLLIYGASTRATDIPARFSGSGSGTEFTLTISSLQSEDFAVYYCQQYDDWPPLTFGGGTKVDIK
B5: BD56-265 (protein)
chain 1: QVQLVQSGAEVKKPGASVKVSCKASGYTFTGYFLYWVRQAPGQGLQWMGRINPNSGDTDYAQKFQGRVTMTRDTSISTAYLEMSRLRSDDTAVYYCAREPGYDILTDSYGDYWGQGTLVTVSS
chain 2: EIVMTQSPATLSVSPGERATLSCRASQSVSNNLAWYQQKPGQAPRLLIYGASTRATGIPARFSGSGSGTEFTLTINSLQSEDFAVYYCQHYHNWPPWTFGQGTKVEIK
B6: BD56-223 (protein)
chain 1: QVQLVQSGAEVKKPGASVKVSCEASGFSFSSYYIHWVRQAPGQGLEWMGIINPEAGSTTYAQKFQGRVTMTRDTSTSTVYVELSSLRSEDTAVYYCARDEGYIPYTNSPDYWGQGTLVTVSS
chain 2: QSALTQPASVSGSPGQSITISCTGTNSDVGSYNRVSWYLQYPGKAPRLIIYEVTKRPSGVSNRFSGSKSGNTASLTISGLQAEDEADYYCCSYARSSTWVFGGGTRLTVL
B7: BD56-400 (protein)
chain 1: EVQLVESGGGLVQPGGSLRLSCAASGLTVSSNYMSWVRQAPGKGLEWVSIIYPGGSTYYADSVKGRFTISRHNSKNTLYLQMNSLRGEDTAVYYCARDSRVNGMDVWGQGTTVTVSS
chain 2: DIQMTQSPSSLSASVGDRVTITCQASQDINNYLNWYQQKPGKAPKLLIYDASNLETGVPSRFSGSGSGTDFTFTISSLQPEDIATYYCQQYDNLPITFGQGTRLEIK
B8: BD56-327 (protein)
chain 1: EVQLQQWGAGLLKPSETLSLTCAVYGGSLSDYYWSWLRQPPGKGLEWIGEINHSGSTNYNPSLKSRVTISVDTSKNQFSLKLSSVTAADTAVYFCARVGGSYYSAEYFQYWGQGTLVTVSS
chain 2: DIVLTQSPGTLSLSPGERATLSCRASQSVRSSSLAWYQQKPGQAPRLLIYGASSRATGIPDRFNGSGSGTDFTLTISRLEPDDFAVYYCQQYGSSPLTFGGGTKVEIK
B9: BD56-411 (protein)
chain 1: EVQLVESGGGLVRPGGSLRLSCAASGVTVSSNYMNWVRQAPGKGLEWVSLFYSGGSTYYADSVKGRFTISRDNSKNTLYLQMNSLRDEDTAVYYCARDLREVGGMDVWGQGTTVTVSS
chain 2: QSVLTQPPSASGTPGQRVTISCSGSSSKIGSNDVYWYQQLPGTAPKLLIFRNSQRPSGVPDRFSGSKSGTSASLAISGLRSEDEADYYCAVWDESLSDHYVFGTGTKVTVL
B10: BD56-414 (protein)
chain 1: EVQLVESGGGLVQPGGSLRLSCAASEITVSSNYMNWVRQAPGKGLEWVSVIYPGGSTFYADSVKGRFTISRDHSKNTLYLQMNSLRAEDTAVYYCAREGLISRSLTFDIWGQGTMVTVAS
chain 2: DIQMTQSPSSLSASVGDRVTITCRASQSINNNLNWYQQKPGKAPKLLIYATSNLQSGVPSRFSGSGSGTHFTLTISSLRPEDFATYYCQQTYSTPPYTFGQGTKLEVK
B11: DH1151 (protein)
chain 1: QVQLVQSGAEVKKPGASVKVSCKASGYTFTDYYMHWVRQAPGQGLEWMGRINPSSGGTNYVQKFQGRVTMTRDTSISTSYMELSRLRSDDTAVYYCARDLEDFWSGYPPLGYALDVWGQGTTVTVSS
chain 2: NFMLTQPHSVSESPGKTVTISCTRSSGSIASNYVQWYQQRPGSAPTTVIYEDNQRPSGVPDRFSGSIDSSSNSASLTISGLKTEDEADYYCQSYDISNVIFGGGTQLTVL
B12: BD56-234 (protein)
chain 1: EVQLVESGGGLVQPGGSLRLSCAASGVTVRSNYMSWVRQAPGKGLEWVSLIYSGGSTFYADSVRGRFTISRDNSKNTLYLQMNSLRAEDTAVYYCARDLQVFGMDVWGQGTTVTVSS
chain 2: IQLTQSPSSLSASVGDTLTITCRASQGISSDLAWYQQKPGKAPKLLIYAASTLQSGVPSRFSGSGSGTDFTLTISSLQPEDFATYYCQQLNSYTYPFGQGTKLEIK

One assay addresses SARS-CoV-2 Omicron BA.1 spike pseudovirus. As to the kind of experiment: pseudovirus neutralization IC50; higher = weaker neutralization. Here is the method: (§1)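 Single-round VSV luciferase pseudovirus mixed with antibody dilutions for 1 h and put on Huh-7 cells for about a day; IC50 from the dose curve.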
Consider B1, for which the “pseudovirus neutralization IC50” value is more than 10 µg/mL.

For the molecule B2, the “pseudovirus neutralization IC50” value is more than 10 µg/mL.

Consider B3, for which the “pseudovirus neutralization IC50” value worked out at 1.02 µg/mL.

Take B4: the “pseudovirus neutralization IC50” value came to 1.67 µg/mL.

Consider B5, for which the “pseudovirus neutralization IC50” value was 0.0116 µg/mL.

In the case of B6, the “pseudovirus neutralization IC50” value was more than 10 µg/mL.

Turning to B7, the “pseudovirus neutralization IC50” value was found to be 0.001 µg/mL.

Turning to B8, the “pseudovirus neutralization IC50” value amounted to 0.262 µg/mL.

For the molecule B9, the “pseudovirus neutralization IC50” value stood at 0.181 µg/mL.

With B10, the “pseudovirus neutralization IC50” value is 5.12 µg/mL.

Turning to B11, the “pseudovirus neutralization IC50” value turned out to be 0.543 µg/mL.

For B12, the “pseudovirus neutralization IC50” value amounted to 0.0809 µg/mL.

The next assay concerns the target SARS-CoV-2 Omicron BA.2 spike pseudovirus. The description is as above. As to the method:
as §1
On to B1, for which the “pseudovirus neutralization IC50” value was more than 10 µg/mL.

Regarding B2, the “pseudovirus neutralization IC50” value was more than 10 µg/mL.

In the case of B3, the “pseudovirus neutralization IC50” value was found to be 1.14 µg/mL.

In the case of B4, the “pseudovirus neutralization IC50” value was 3.58 µg/mL.

For B5, the “pseudovirus neutralization IC50” value was 0.00967 µg/mL.

With B6, the “pseudovirus neutralization IC50” value is more than 10 µg/mL.

With B7, the “pseudovirus neutralization IC50” value was determined as 0.00128 µg/mL.

For B8, the “pseudovirus neutralization IC50” value is 0.36 µg/mL.

On to B9, for which the “pseudovirus neutralization IC50” value was determined as 0.161 µg/mL.

Regarding B10, the “pseudovirus neutralization IC50” value came out at 2.74 µg/mL.

For the molecule B11, the “pseudovirus neutralization IC50” value came out at 0.448 µg/mL.

For the molecule B12, the “pseudovirus neutralization IC50” value is 0.0386 µg/mL.

The next assay addresses SARS-CoV-2 Omicron BA.2.75 spike pseudovirus. Described as above. As to the method:
as §1
Take B1: the “pseudovirus neutralization IC50” value was more than 10 µg/mL.

For B2, the “pseudovirus neutralization IC50” value was more than 10 µg/mL.

With B3, the “pseudovirus neutralization IC50” value stood at 2.95 µg/mL.

For the molecule B4, the “pseudovirus neutralization IC50” value amounted to 3.87 µg/mL.

Regarding B5, the “pseudovirus neutralization IC50” value is 0.13 µg/mL.

With B6, the “pseudovirus neutralization IC50” value is more than 10 µg/mL.

Take B7: the “pseudovirus neutralization IC50” value is 0.399 µg/mL.

On to B8, for which the “pseudovirus neutralization IC50” value was determined as 0.226 µg/mL.

For B9, the “pseudovirus neutralization IC50” value is more than 10 µg/mL.

With B10, the “pseudovirus neutralization IC50” value was more than 10 µg/mL.

Take B11: the “pseudovirus neutralization IC50” value was found to be 0.579 µg/mL.

Turning to B12, the “pseudovirus neutralization IC50” value is more than 10 µg/mL.

The target of the next assay is SARS-CoV-2 Omicron BA.5 spike pseudovirus. The assay is described as above. As to the method:
as §1
Regarding B1, the “pseudovirus neutralization IC50” value was more than 10 µg/mL.

Take B2: the “pseudovirus neutralization IC50” value is more than 10 µg/mL.

On to B3, for which the “pseudovirus neutralization IC50” value was found to be 3.05 µg/mL.

With B4, the “pseudovirus neutralization IC50” value was determined as 2.43 µg/mL.

Turning to B5, the “pseudovirus neutralization IC50” value is more than 10 µg/mL.

As for B6, the “pseudovirus neutralization IC50” value was more than 10 µg/mL.

Take B7: the “pseudovirus neutralization IC50” value was found to be 0.00284 µg/mL.

On to B8, for which the “pseudovirus neutralization IC50” value was found to be 0.529 µg/mL.

Regarding B9, the “pseudovirus neutralization IC50” value was more than 10 µg/mL.

On to B10, for which the “pseudovirus neutralization IC50” value turned out to be 2.53 µg/mL.

For B11, the “pseudovirus neutralization IC50” value is more than 10 µg/mL.

Turning to B12, the “pseudovirus neutralization IC50” value turned out to be 0.332 µg/mL.

The next assay deals with SARS-CoV-2 Omicron BQ.1.1 spike pseudovirus. The description is as above. Here is the method: as §1
Regarding B1, the “pseudovirus neutralization IC50” value is more than 10 µg/mL.

In the case of B2, the “pseudovirus neutralization IC50” value was more than 10 µg/mL.

As for B3, the “pseudovirus neutralization IC50” value was 2.77 µg/mL.

In the case of B4, the “pseudovirus neutralization IC50” value worked out at 3.13 µg/mL.

On to B5, for which the “pseudovirus neutralization IC50” value was more than 10 µg/mL.

In the case of B6, the “pseudovirus neutralization IC50” value is more than 10 µg/mL.

For B7, the “pseudovirus neutralization IC50” value is more than 10 µg/mL.

Consider B8, for which the “pseudovirus neutralization IC50” value turned out to be 0.792 µg/mL.

On to B9, for which the “pseudovirus neutralization IC50” value is more than 10 µg/mL.

Take B10: the “pseudovirus neutralization IC50” value was more than 10 µg/mL.

Turning to B11, the “pseudovirus neutralization IC50” value is more than 10 µg/mL.

In the case of B12, the “pseudovirus neutralization IC50” value is more than 10 µg/mL.

The target of a further assay is SARS-CoV-2 Omicron XBB spike pseudovirus. The assay is described as above. Here is the method:
as §1
As to B1, the “pseudovirus neutralization IC50” value is more than 10 µg/mL.

For B2, the “pseudovirus neutralization IC50” value is more than 10 µg/mL.

Regarding B3, the “pseudovirus neutralization IC50” value is 3.16 µg/mL.

B4: the “pseudovirus neutralization IC50” value was determined as 3 µg/mL.

Regarding B5, the “pseudovirus neutralization IC50” value is more than 10 µg/mL.

As for B6, the “pseudovirus neutralization IC50” value is more than 10 µg/mL.

Turning to B7, the “pseudovirus neutralization IC50” value is more than 10 µg/mL.

Turning to B8, the “pseudovirus neutralization IC50” value was more than 10 µg/mL.

Regarding B9, the “pseudovirus neutralization IC50” value is more than 10 µg/mL.

With B10, the “pseudovirus neutralization IC50” value is more than 10 µg/mL.

In the case of B11, the “pseudovirus neutralization IC50” value is more than 10 µg/mL.

Regarding B12, the “pseudovirus neutralization IC50” value was more than 10 µg/mL.

Another assay has as its target SARS-CoV-2 early D614G spike pseudovirus. The description is as above. Here is the method:
as §1
On to B1, for which the “pseudovirus neutralization IC50” value was more than 10 µg/mL.

Turning to B2, the “pseudovirus neutralization IC50” value is more than 10 µg/mL.

As to B3, the “pseudovirus neutralization IC50” value was more than 10 µg/mL.

For B4, the “pseudovirus neutralization IC50” value stood at 1.61 µg/mL.

For the molecule B5, the “pseudovirus neutralization IC50” value was 0.111 µg/mL.

As for B6, the “pseudovirus neutralization IC50” value was more than 10 µg/mL.

Turning to B7, the “pseudovirus neutralization IC50” value came out at 0.126 µg/mL.

As for B8, the “pseudovirus neutralization IC50” value came to 1.23 µg/mL.

On to B9, for which the “pseudovirus neutralization IC50” value came to 0.00465 µg/mL.

Regarding B10, the “pseudovirus neutralization IC50” value was 0.00534 µg/mL.

For B11, the “pseudovirus neutralization IC50” value is 0.106 µg/mL.

B12: the “pseudovirus neutralization IC50” value came to 0.00104 µg/mL.
